The entries are a selection whose mix differs from that of the whole data set. Active and inactive are the calls of the source. Cut-off read from the data, not from the text of the source: active = inhibition above about 40%; inactive = the rest.

The assay in a line: antibacterial activity on E. coli BW25113 – strain BW25113 wild type, absorbance readout, primary screen (AID 552).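 Note: bacteria exposed to compound for 20 hours at 37 °C.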 The following applies: E. coli BW25113 growth inhibition, OD600; at 10 µM; hits give high values. In outline: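 System: bacterial strain in a whole-cell growth screen; medium: LB broth with 50 µg/mL kanamycin; detection: absorbance at 615 nm; schedule: 20 h exposure, 37 °C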
One may read the inhibition as the relative decrease from the control value, in per cent. For `O=P(Nc1nccs1)(c1ccccc1)c1ccccc1`, the inhibition is inactive: 6.33%. As for `c1nnnn1CCn1cnnn1`, the inhibition was inactive: -22.2%. Take `COP1(=S)c2c(C)nn(CCC#N)c2N=C(c2ccc(F)cc2)N1C` (stereo unspecified): the inhibition is inactive: -2.02%. Regarding `O=C(COc1ccccc1)OC1CN2CCC1CC2` (stereo unspecified), the inhibition was inactive: 6.23%. In the case of `CCOP1(=S)c2c(C)nn(CCC#N)c2N=C(c2ccccc2F)N1C` (stereo unspecified) it was inactive: -2.15%; in that of `Cc1nn(-c2ccccc2)c2c1P(=O)(N1CCOCC1)N(C)C(c1ccccc1)=N2` (stereo unspecified), inactive: 20.4%.

The values above are taken from PubChem BioAssay AID552 (SRMLSC, 2006).
